The target of the experiment is EndoS2 (Streptococcus pyogenes, UniProt T1WGN1, E186L).

Chains of the proteins cited; added tags and fusions are not shown. Residues count along the entry.
UniProt T1WGN1, 43-843 E186L limits assumed: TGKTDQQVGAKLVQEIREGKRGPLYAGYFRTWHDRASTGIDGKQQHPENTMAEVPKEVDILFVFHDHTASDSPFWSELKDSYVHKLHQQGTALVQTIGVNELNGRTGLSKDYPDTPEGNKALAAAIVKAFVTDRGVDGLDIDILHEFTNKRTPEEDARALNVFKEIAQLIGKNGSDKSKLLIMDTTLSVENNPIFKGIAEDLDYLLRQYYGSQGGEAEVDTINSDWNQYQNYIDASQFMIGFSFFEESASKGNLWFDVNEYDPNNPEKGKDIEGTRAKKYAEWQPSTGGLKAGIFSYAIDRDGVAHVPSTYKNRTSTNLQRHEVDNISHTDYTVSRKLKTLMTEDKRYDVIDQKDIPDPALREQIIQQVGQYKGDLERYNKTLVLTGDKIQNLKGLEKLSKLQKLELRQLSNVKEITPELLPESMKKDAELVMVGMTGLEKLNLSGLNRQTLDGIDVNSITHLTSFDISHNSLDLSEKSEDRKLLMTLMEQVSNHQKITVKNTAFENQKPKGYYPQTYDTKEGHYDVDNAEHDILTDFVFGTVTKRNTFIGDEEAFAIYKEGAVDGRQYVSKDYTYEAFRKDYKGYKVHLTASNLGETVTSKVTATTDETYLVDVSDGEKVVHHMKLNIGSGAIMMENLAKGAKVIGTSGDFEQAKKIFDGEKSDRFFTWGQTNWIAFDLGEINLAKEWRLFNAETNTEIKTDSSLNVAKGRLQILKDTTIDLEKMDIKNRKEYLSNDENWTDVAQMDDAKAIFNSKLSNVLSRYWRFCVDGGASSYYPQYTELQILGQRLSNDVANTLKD

pKd: −log10 of the molar value. The match of structure and compound is tentative.

As for `CC(=O)N[C@@H]1[C@@H](O)[C@H](O[C@@H]2O[C@H](CO)[C@@H](O[C@@H]3O[C@H](CO[C@H]4O[C@H](CO)[C@@H](O)[C@H](O)[C@@H]4O[C@@H]4O[C@H](CO)[C@@H](O[C@@H]5O[C@H](CO)[C@H](O)[C@H](O)[C@H]5O)[C@H](O)[C@H]4NC(C)=O)[C@@H](O)[C@H](O[C@H]4O[C@H](CO)[C@@H](O)[C@H](O)[C@@H]4O[C@@H]4O[C@H](CO)[C@@H](O[C@@H]5O[C@H](CO)[C@H](O)[C@H](O)[C@H]5O)[C@H](O)[C@H]4NC(C)=O)[C@@H]3O)[C@H](O)[C@H]2NC(C)=O)[C@@H](CO)O[C@H]1NC(=O)C[C@H](N)C(=O)O`, the pKd (usually the negative decadic logarithm of the Kd, by convention in mol/L) was 3.97.

For the origin of these results see paper PMC10042849.
